PubChem BioAssay AID1259414 | Drosophila RNAi Screening Center – 2018
The deposit covers about 24,000 reagents; shown is an unselected part of those that have a named target and a result. Of all reagents, about 1,210 (5%) got an active call. 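Inactive calls also include excluded dsRNAs with several or no targets, genes unexpressed in JW18, and well A1, regardless of score.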 A plus sign joins genes that one reagent is predicted to hit.

Assay: 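Genome-wide screen for host control of endosymbiont load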 (primary screen)
Cells: Drosophila JW18 cells infected with Wolbachia
Reagent: long dsRNA against Drosophila genes, 0.25 µg dsRNA per well of a 384-well plate
Time to read-out: 5 days
Treatment: cells persistently infected with Wolbachia before knock-down; no added drug
Measured: 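Automated imaging of bacterial rRNA staining divided by host cell count, reported as plate-normalised robust z-score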
Scale: Wolbachia per cell robust z: higher = more Wolbachia per host cell than the plate typical
Call rule: 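Active if absolute robust z reaches 1.5 in two or more of three replicates, leaving out multi- or no-target dsRNAs, genes unexpressed in JW18 and A1 wells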

{"gene knocked down":"Brr2","amplicon":"DRSC10559","Wolbachia per cell robust z, rep 1":0.992,"Wolbachia per cell robust z, rep 2":1.35,"Wolbachia per cell robust z, rep 3":0.122,"activity call":"inactive"}
{"gene knocked down":"spirit","amplicon":"DRSC18202","Wolbachia per cell robust z, rep 1":0.21,"Wolbachia per cell robust z, rep 2":0.28,"Wolbachia per cell robust z, rep 3":-5.1,"activity call":"inactive"}
{"gene knocked down":"spirit","amplicon":"DRSC25748","Wolbachia per cell robust z, rep 1":0.0826,"Wolbachia per cell robust z, rep 2":-1.02,"Wolbachia per cell robust z, rep 3":0.549,"activity call":"inactive"}
{"gene knocked down":"l(2)k05911","amplicon":"DRSC02523","Wolbachia per cell robust z, rep 1":0.153,"Wolbachia per cell robust z, rep 2":0.81,"Wolbachia per cell robust z, rep 3":0.262,"activity call":"inactive"}
{"gene knocked down":"Tengl4","amplicon":"DRSC15620","Wolbachia per cell robust z, rep 1":0.577,"Wolbachia per cell robust z, rep 2":-7.57,"Wolbachia per cell robust z, rep 3":-0.0798,"activity call":"inactive"}
{"gene knocked down":"L (retired record) + PRAS40","amplicon":"DRSC05966","Wolbachia per cell robust z, rep 1":-2.28,"Wolbachia per cell robust z, rep 2":0.997,"Wolbachia per cell robust z, rep 3":-2.46,"activity call":"inactive"}
{"gene knocked down":"L (retired record) + PRAS40","amplicon":"DRSC25281","Wolbachia per cell robust z, rep 1":0.526,"Wolbachia per cell robust z, rep 2":-0.403,"Wolbachia per cell robust z, rep 3":-0.112,"activity call":"inactive"}
{"gene knocked down":"slpr","amplicon":"DRSC18225","Wolbachia per cell robust z, rep 1":2.49,"Wolbachia per cell robust z, rep 2":1.4,"Wolbachia per cell robust z, rep 3":1.04,"activity call":"inactive"}
{"gene knocked down":"slpr","amplicon":"DRSC23321","Wolbachia per cell robust z, rep 1":0.707,"Wolbachia per cell robust z, rep 2":0.624,"Wolbachia per cell robust z, rep 3":1.14,"activity call":"inactive"}
{"gene knocked down":"CG15423","amplicon":"DRSC00437","Wolbachia per cell robust z, rep 1":-0.172,"Wolbachia per cell robust z, rep 2":-2.17,"Wolbachia per cell robust z, rep 3":1.69,"activity call":"inactive"}
{"gene knocked down":"CG15423","amplicon":"DRSC29587","Wolbachia per cell robust z, rep 1":0.327,"Wolbachia per cell robust z, rep 2":0.147,"Wolbachia per cell robust z, rep 3":-0.335,"activity call":"inactive"}
{"gene knocked down":"CG9498","amplicon":"DRSC03235","Wolbachia per cell robust z, rep 1":0.05,"Wolbachia per cell robust z, rep 2":0.773,"Wolbachia per cell robust z, rep 3":2.18,"activity call":"inactive"}
{"gene knocked down":"CG33346","amplicon":"DRSC22898","Wolbachia per cell robust z, rep 1":-0.196,"Wolbachia per cell robust z, rep 2":-0.627,"Wolbachia per cell robust z, rep 3":-1.42,"activity call":"inactive"}
{"gene knocked down":"CG15279","amplicon":"DRSC01935","Wolbachia per cell robust z, rep 1":-8.35,"Wolbachia per cell robust z, rep 2":-0.62,"Wolbachia per cell robust z, rep 3":-8.8,"activity call":"active"}
{"gene knocked down":"CG15279","amplicon":"DRSC27347","Wolbachia per cell robust z, rep 1":0.876,"Wolbachia per cell robust z, rep 2":0.243,"Wolbachia per cell robust z, rep 3":-4.34,"activity call":"inactive"}
{"gene knocked down":"CG33309","amplicon":"DRSC01421","Wolbachia per cell robust z, rep 1":0.494,"Wolbachia per cell robust z, rep 2":-0.889,"Wolbachia per cell robust z, rep 3":-2.01,"activity call":"inactive"}
{"gene knocked down":"Art8","amplicon":"DRSC02530","Wolbachia per cell robust z, rep 1":0.84,"Wolbachia per cell robust z, rep 2":0.515,"Wolbachia per cell robust z, rep 3":1.3,"activity call":"inactive"}
{"gene knocked down":"CG18558","amplicon":"DRSC21593","Wolbachia per cell robust z, rep 1":0.116,"Wolbachia per cell robust z, rep 2":-1.49,"Wolbachia per cell robust z, rep 3":-0.751,"activity call":"inactive"}
{"gene knocked down":"Dph3","amplicon":"DRSC14923","Wolbachia per cell robust z, rep 1":-4.71,"Wolbachia per cell robust z, rep 2":-1.02,"Wolbachia per cell robust z, rep 3":1.15,"activity call":"inactive"}
{"gene knocked down":"Dph3","amplicon":"DRSC25545","Wolbachia per cell robust z, rep 1":0.615,"Wolbachia per cell robust z, rep 2":0.325,"Wolbachia per cell robust z, rep 3":0.182,"activity call":"inactive"}
{"gene knocked down":"CG13919","amplicon":"DRSC08388","Wolbachia per cell robust z, rep 1":1.28,"Wolbachia per cell robust z, rep 2":-0.0195,"Wolbachia per cell robust z, rep 3":-1.36,"activity call":"inactive"}
{"gene knocked down":"mRpL37","amplicon":"DRSC16062","Wolbachia per cell robust z, rep 1":-0.571,"Wolbachia per cell robust z, rep 2":0.298,"Wolbachia per cell robust z, rep 3":-0.18,"activity call":"inactive"}
{"gene knocked down":"GlyRS","amplicon":"DRSC10711","Wolbachia per cell robust z, rep 1":0.261,"Wolbachia per cell robust z, rep 2":-0.0433,"Wolbachia per cell robust z, rep 3":2.01,"activity call":"inactive"}
{"gene knocked down":"hiw","amplicon":"DRSC20338","Wolbachia per cell robust z, rep 1":0.763,"Wolbachia per cell robust z, rep 2":0.753,"Wolbachia per cell robust z, rep 3":0.913,"activity call":"inactive"}
{"gene knocked down":"hiw","amplicon":"DRSC20339","Wolbachia per cell robust z, rep 1":-4.64,"Wolbachia per cell robust z, rep 2":0.0884,"Wolbachia per cell robust z, rep 3":0.525,"activity call":"inactive"}
{"gene knocked down":"hiw","amplicon":"DRSC23634","Wolbachia per cell robust z, rep 1":0.52,"Wolbachia per cell robust z, rep 2":-0.124,"Wolbachia per cell robust z, rep 3":0.41,"activity call":"inactive"}

Not a retest: 3 of the entries above.
{"gene knocked down":"Dph3","amplicon":"DRSC14923","Wolbachia per cell robust z, rep 1":-4.71,"Wolbachia per cell robust z, rep 2":-1.02,"Wolbachia per cell robust z, rep 3":1.15,"activity call":"inactive"}
{"gene knocked down":"Dph3","amplicon":"DRSC25545","Wolbachia per cell robust z, rep 1":0.615,"Wolbachia per cell robust z, rep 2":0.325,"Wolbachia per cell robust z, rep 3":0.182,"activity call":"inactive"}
{"gene knocked down":"CG13919","amplicon":"DRSC08388","Wolbachia per cell robust z, rep 1":1.28,"Wolbachia per cell robust z, rep 2":-0.0195,"Wolbachia per cell robust z, rep 3":-1.36,"activity call":"inactive"}
